Data as given in article PMC5128756, “The Role of Individual Disulfide Bonds of μ-Conotoxin GIIIA in the Inhibition of NaV1.4” (2016).

Chains of the proteins cited; added tags and fusions are not shown.
UniProt P15390, whole entry: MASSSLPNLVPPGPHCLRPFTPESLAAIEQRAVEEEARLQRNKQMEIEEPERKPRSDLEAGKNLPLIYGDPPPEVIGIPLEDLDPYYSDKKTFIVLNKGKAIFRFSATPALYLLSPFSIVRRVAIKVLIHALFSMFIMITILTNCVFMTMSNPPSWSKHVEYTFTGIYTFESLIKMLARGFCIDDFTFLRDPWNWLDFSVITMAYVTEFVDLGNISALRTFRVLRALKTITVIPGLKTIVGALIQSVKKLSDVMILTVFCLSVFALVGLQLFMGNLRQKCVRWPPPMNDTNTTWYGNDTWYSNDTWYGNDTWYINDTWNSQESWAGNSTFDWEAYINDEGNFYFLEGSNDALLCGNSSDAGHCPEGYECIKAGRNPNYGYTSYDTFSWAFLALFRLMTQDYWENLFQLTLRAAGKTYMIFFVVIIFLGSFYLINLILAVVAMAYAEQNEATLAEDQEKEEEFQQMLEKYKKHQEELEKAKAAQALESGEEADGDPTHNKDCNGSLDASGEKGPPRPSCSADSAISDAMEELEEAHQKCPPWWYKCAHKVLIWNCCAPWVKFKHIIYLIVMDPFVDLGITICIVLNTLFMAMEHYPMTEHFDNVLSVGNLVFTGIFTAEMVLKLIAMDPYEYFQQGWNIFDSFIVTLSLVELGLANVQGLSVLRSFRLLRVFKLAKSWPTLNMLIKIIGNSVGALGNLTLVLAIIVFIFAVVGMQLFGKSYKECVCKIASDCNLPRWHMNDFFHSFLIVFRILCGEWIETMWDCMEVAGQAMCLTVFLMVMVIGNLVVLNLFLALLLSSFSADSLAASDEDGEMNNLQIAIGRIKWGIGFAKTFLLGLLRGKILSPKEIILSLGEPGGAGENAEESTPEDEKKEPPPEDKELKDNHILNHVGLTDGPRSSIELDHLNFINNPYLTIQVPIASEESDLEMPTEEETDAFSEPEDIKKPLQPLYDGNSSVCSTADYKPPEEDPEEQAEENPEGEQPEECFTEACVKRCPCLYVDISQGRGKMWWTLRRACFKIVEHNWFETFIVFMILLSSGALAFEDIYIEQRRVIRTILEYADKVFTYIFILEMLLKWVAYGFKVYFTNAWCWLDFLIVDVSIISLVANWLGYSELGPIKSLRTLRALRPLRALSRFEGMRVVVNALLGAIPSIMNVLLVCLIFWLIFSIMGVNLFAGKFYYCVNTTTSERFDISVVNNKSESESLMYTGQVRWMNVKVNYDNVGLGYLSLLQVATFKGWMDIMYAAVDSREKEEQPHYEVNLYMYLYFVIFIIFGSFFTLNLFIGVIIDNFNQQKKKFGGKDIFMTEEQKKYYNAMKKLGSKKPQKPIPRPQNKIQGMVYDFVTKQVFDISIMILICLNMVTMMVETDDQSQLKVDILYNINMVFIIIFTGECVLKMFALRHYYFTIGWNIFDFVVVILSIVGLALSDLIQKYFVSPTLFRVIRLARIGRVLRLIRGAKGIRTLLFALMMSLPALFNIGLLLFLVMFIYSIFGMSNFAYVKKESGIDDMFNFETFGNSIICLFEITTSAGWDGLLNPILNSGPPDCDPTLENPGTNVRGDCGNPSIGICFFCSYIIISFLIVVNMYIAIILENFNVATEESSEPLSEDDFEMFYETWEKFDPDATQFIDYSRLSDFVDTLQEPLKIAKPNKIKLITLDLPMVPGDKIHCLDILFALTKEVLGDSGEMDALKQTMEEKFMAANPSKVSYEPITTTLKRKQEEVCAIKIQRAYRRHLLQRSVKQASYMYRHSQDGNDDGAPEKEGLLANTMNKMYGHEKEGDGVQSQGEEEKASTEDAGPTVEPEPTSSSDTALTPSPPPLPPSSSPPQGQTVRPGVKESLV

Target: rNaV1.4 (Rattus norvegicus, UniProt P15390)
Settings: for blockade of rNaV1.4: at 100 μM, whole cell patch-clamp, HEK293 cells; for Inhibitory Potency: potency against rNaV1.4 relative to GIIIA (= 1)

**Q.** With `C[C@H](NC(=O)[C@H](C)NC(=O)[C@@H]1CSSC[C@H](NC(=O)[C@H](C)NC(=O)[C@H](CC(=O)O)NC(=O)[C@@H](N)CCCNC(=N)N)C(=O)N[C@@H]([C@@H](C)O)C(=O)N2C[C@H](O)C[C@H]2C(=O)N2C[C@H](O)C[C@H]2C(=O)N[C@@H](CCCCN)C(=O)N[C@@H](CCCCN)C(=O)N[C@@H](C)C(=O)N[C@@H](CCCCN)C(=O)N[C@@H](CC(=O)O)C(=O)N[C@@H](CCCNC(=N)N)C(=O)N[C@@H](CCC(N)=O)C(=O)N[C@@H](C)C(=O)N[C@@H](CCCCN)C(=O)N2C[C@H](O)C[C@H]2C(=O)N[C@@H](CCC(N)=O)C(=O)N[C@@H](CCCNC(=N)N)C(=O)N1)C(N)=O` as the molecule, how does the IC50 read?
**A.** > 100 µM

**Q.** What about the “blockade of rNaV1.4” value of the same molecule?
**A.** did not exhibit any significant blockade

**Q.** And the “Inhibitory Potency” value?
**A.** <0.0007

**Q.** `C[C@H](NC(=O)[C@H](C)NC(=O)[C@@H]1CSSC[C@@H]2NC(=O)[C@@H](NC(=O)[C@H](CC(=O)O)NC(=O)[C@@H](N)CCCNC(=N)N)CSSC[C@H](NC(=O)[C@H](CCC(N)=O)NC(=O)[C@H](CCCNC(=N)N)NC(=O)[C@H](CC(=O)O)NC(=O)[C@H](CCCCN)NC(=O)[C@H](C)NC(=O)[C@H](CCCCN)NC(=O)[C@H](CCCCN)NC(=O)[C@@H]3C[C@@H](O)CN3C(=O)[C@@H]3C[C@@H](O)CN3C(=O)[C@H]([C@@H](C)O)NC2=O)C(=O)N[C@@H](CCCCN)C(=O)N2C[C@H](O)C[C@H]2C(=O)N[C@@H](CCC(N)=O)C(=O)N[C@@H](CCCNC(=N)N)C(=O)N1)C(N)=O` was tested. Which IC50 did it give?
**A.** 15.8 µM

**Q.** For `C[C@H](NC(=O)[C@H](C)NC(=O)[C@H](C)NC(=O)[C@H](CCCNC(=N)N)NC(=O)[C@H](CCC(N)=O)NC(=O)[C@@H]1C[C@@H](O)CN1C(=O)[C@H](CCCCN)NC(=O)[C@@H]1CSSC[C@H](NC(=O)[C@H](CC(=O)O)NC(=O)[C@@H](N)CCCNC(=N)N)C(=O)N[C@@H](C)C(=O)N[C@@H]([C@@H](C)O)C(=O)N2C[C@H](O)C[C@H]2C(=O)N2C[C@H](O)C[C@H]2C(=O)N[C@@H](CCCCN)C(=O)N[C@@H](CCCCN)C(=O)N[C@@H](C)C(=O)N[C@@H](CCCCN)C(=O)N[C@@H](CC(=O)O)C(=O)N[C@@H](CCCNC(=N)N)C(=O)N[C@@H](CCC(N)=O)C(=O)N1)C(N)=O`, which IC50 is on record?
**A.** > 100 µM

**Q.** What about the “blockade of rNaV1.4” value of the same molecule?
**A.** did not exhibit any significant blockade

**Q.** What about the “Inhibitory Potency” value of the same molecule?
**A.** <0.0007

**Q.** What does the source list for `C[C@H](NC(=O)[C@@H]1CSSC[C@H](NC(=O)[C@H](CCCCN)NC(=O)[C@H](CCCCN)NC(=O)[C@@H]2C[C@@H](O)CN2C(=O)[C@@H]2C[C@@H](O)CN2C(=O)[C@@H](NC(=O)[C@H](C)NC(=O)[C@H](C)NC(=O)[C@H](CC(=O)O)NC(=O)[C@@H](N)CCCNC(=N)N)[C@@H](C)O)C(=O)N[C@@H](CCCCN)C(=O)N[C@@H](CC(=O)O)C(=O)N[C@@H](CCCNC(=N)N)C(=O)N[C@@H](CCC(N)=O)C(=O)N[C@@H](C)C(=O)N[C@@H](CCCCN)C(=O)N2C[C@H](O)C[C@H]2C(=O)N[C@@H](CCC(N)=O)C(=O)N[C@@H](CCCNC(=N)N)C(=O)N[C@@H](C)C(=O)N1)C(N)=O`?
**A.** IC50: > 100 µM; blockade of rNaV1.4: did not exhibit any significant blockade; Inhibitory Potency: <0.0007

**Q.** For `C[C@H](NC(=O)[C@@H]1CSSC[C@@H]2NC(=O)[C@H](CCCCN)NC(=O)[C@H](CCCCN)NC(=O)[C@@H]3C[C@@H](O)CN3C(=O)[C@@H]3C[C@@H](O)CN3C(=O)[C@H]([C@@H](C)O)NC(=O)[C@@H](NC(=O)[C@H](C)NC(=O)[C@H](CC(=O)O)NC(=O)[C@@H](N)CCCNC(=N)N)CSSC[C@H](NC(=O)[C@H](CCCNC(=N)N)NC(=O)[C@H](CCC(N)=O)NC(=O)[C@@H]3C[C@@H](O)CN3C(=O)[C@H](CCCCN)NC(=O)[C@H](C)NC(=O)[C@H](CCC(N)=O)NC(=O)[C@H](CCCNC(=N)N)NC(=O)[C@H](CC(=O)O)NC(=O)[C@H](CCCCN)NC2=O)C(=O)N1)C(N)=O`, which IC50 is on record?
**A.** 2.1 µM

**Q.** For `C[C@H](NC(=O)[C@@H]1CSSC[C@@H]2NC(=O)[C@H](CCCCN)NC(=O)[C@H](CCCCN)NC(=O)[C@@H]3C[C@@H](O)CN3C(=O)[C@@H]3C[C@@H](O)CN3C(=O)[C@H]([C@@H](C)O)NC(=O)[C@H](C)NC(=O)[C@@H](NC(=O)[C@H](CC(=O)O)NC(=O)[C@@H](N)CCCNC(=N)N)CSSC[C@H](NC(=O)[C@H](CCC(N)=O)NC(=O)[C@H](CCCNC(=N)N)NC(=O)[C@H](CC(=O)O)NC(=O)[C@H](CCCCN)NC2=O)C(=O)N[C@@H](CCCCN)C(=O)N2C[C@H](O)C[C@H]2C(=O)N[C@@H](CCC(N)=O)C(=O)N[C@@H](CCCNC(=N)N)C(=O)N[C@@H](C)C(=O)N1)C(N)=O`, which IC50 is on record?
**A.** 3.3 µM

**Q.** With `C[C@H](NC(=O)[C@H](C)NC(=O)[C@H](C)NC(=O)[C@H](CCCNC(=N)N)NC(=O)[C@H](CCC(N)=O)NC(=O)[C@@H]1C[C@@H](O)CN1C(=O)[C@H](CCCCN)NC(=O)[C@H](C)NC(=O)[C@H](CCC(N)=O)NC(=O)[C@H](CCCNC(=N)N)NC(=O)[C@H](CC(=O)O)NC(=O)[C@H](CCCCN)NC(=O)[C@H](C)NC(=O)[C@H](CCCCN)NC(=O)[C@H](CCCCN)NC(=O)[C@@H]1C[C@@H](O)CN1C(=O)[C@@H]1C[C@@H](O)CN1C(=O)[C@@H](NC(=O)[C@H](C)NC(=O)[C@H](C)NC(=O)[C@H](CC(=O)O)NC(=O)[C@@H](N)CCCNC(=N)N)[C@@H](C)O)C(N)=O` as the molecule, how does the IC50 read?
**A.** > 100 µM

**Q.** And the “blockade of rNaV1.4” value?
**A.** did not exhibit any significant blockade

**Q.** What about the “Inhibitory Potency” value of the same molecule?
**A.** <0.0007
